Anti-infective test results gathered from many reports (values: NIAID ChemDB through PubChem).

Shared fields: growth or infection tests; organism: Rhinovirus; endpoint: EC50

ECn: concentration that inhibits the pathogen or its effect by n%.

smiles | strain | cells | read by | result
CN(C)c1nc(C(F)(F)F)nc2c1ncn2Cc1ccccc1Cl | Serotype 21 | M-HELA | plaque count | >8 µM
CSc1nsc(-c2ccc(OCCCCOc3ccccc3)cc2)c1C#N | Serotype 86 (group A) | HELA-OHIO | cytopathic effect | 0.45 µM
CCCc1noc2cc(OCCC3CCN(c4ccc(C)nn4)CC3)ccc12 | Serotype 14 | MRC-5 | cytopathic effect | 0.019 µg/mL
Cn1c2ccccc2c2nnc(NCC(C)(C)CO)nc21 | HGP | WI-38 | plaque count | 4 µg/mL
CN(C)c1nc(C(F)(F)F)nc2c1ncn2Cc1ccccc1 | Serotype 5 | M-HELA | plaque count | >8 µM
CCn1c2c(c(=O)c3cc(C(C)C)ccc31)Cc1ccccc1-2 | 50/A2#58 | HELA-OHIO | cytopathic effect | 0.2 µg/mL
Fc1cccc(Cn2cnc3c(Nc4cccc(F)c4)nc(C(F)(F)F)nc32)c1 | Serotype 35 | M-HELA | plaque count | 9.7 µM
CSc1nsc(-c2ccc(OCCOc3ccc([N+](=O)[O-])cc3)cc2)c1C#N | Serotype 45 (group A) | HELA-OHIO | cytopathic effect | >2 µM
CCSc1nc2ccc(OCCC3CCN(c4ccc(Cl)nn4)CC3)cc2o1 | Serotype 2 | MRC-5 | cytopathic effect | 0.008 µg/mL
Cc1nc(-c2cc(C)c(OCCCc3cc(C4CC4)no3)c(C)c2)no1 | Serotype 21 | HeLa | cytopathic effect | 0.009 µg/mL
CCOc1nc2ccc(OCCC3CCN(c4nnc(C)s4)CC3)cc2o1 | Serotype 14 | MRC-5 | cytopathic effect | 0.056 µg/mL
CSc1nsc(-c2ccc(OCCCOc3ccc([N+](=O)[O-])cc3)cc2)c1C#N | Serotype 45 (group A) | HELA-OHIO | cytopathic effect | >1 µM
CSc1nsc(-c2ccc(OS(=O)(=O)c3ccc(C)cc3)cc2)c1C#N | Serotype 39 (group B) | HELA-OHIO | cytopathic effect | >25 µM
CO/N=C/c1cccc(OCCC2CCN(c3ccc(Cl)nn3)CC2)c1 | TYPE 2 | MRC-5 | cytopathic effect / visual reading | <0.001 µg/mL
CN(C)c1nc(C(F)(F)F)nc2c1ncn2Cc1ccc(F)cc1 | Serotype 3 | M-HELA | plaque count | >8 µM
Cn1c2ccccc2c2nnc(NCCCO)nc21 | 1059 | WI-38 | plaque count | 50 µg/mL
CSc1nsc(-c2ccc(OCCCOc3ccccc3)cc2)c1C#N | Serotype 14 (group A) | HELA-OHIO | cytopathic effect | 10 µM
Cc1ccc(Cn2cnc3c(N(C)C)nc(C(F)(F)F)nc32)cc1 | TYPE 5 | M-HELA | plaque count | >8 µM
Cc1cc(CCCOc2c(C)cc(-n3nnc(C)n3)cc2C)on1 | Serotype 3 | - | plaque count | 0.158 µg/mL
Cc1ccc(Cn2cnc3c(N(C)C)nc(C(F)(F)F)nc32)cc1 | Serotype 1B | M-HELA | plaque count | 0.03 µM
Cc1c(-c2ccccc2)n(-c2cccc(F)c2)c2ccc(C(C)C)cc2c1=O | 36/342H | HELA-OHIO | cytopathic effect | 0.085 µg/mL
Cc1cc(CCCOc2c(C)cc(-c3noc(C(F)(F)F)n3)cc2C)on1 | Isolate 20 | OHIO HELA-I | cytopathic effect / visual reading | >1 µg/mL
CC(=O)OCCCNc1nnc2c3ccccc3n(C)c2n1 | 1059 | WI-38 | plaque count | 220 µg/mL
Cc1cc(CCCOc2c(C)cc(-c3coc(C)n3)cc2C)on1 | Serotype 3 | - | plaque count | 0.658 µg/mL
CCO/N=C/c1ccc(OCCC2CCN(c3ccc(Cl)nn3)CC2)cc1 | 47-CV21 (ICAM-1 receptor group 21) | KB | neutral red | 0.258 µM
CCCn1c2ccccc2c2nnc(NCCCO)nc21 | 1059 | WI-38 | plaque count | 20 µg/mL
Cc1c(-c2ccccc2)n(-c2ccc(F)cc2)c2ccc(C(C)C)cc2c1=O | TYPE 1B/B632 | HELA-OHIO | cytopathic effect | 0.27 µg/mL
Cc1cc(CCCCCOc2c(Cl)cc(C3=NCCO3)cc2Cl)on1 | ATCC39 | HeLa | plaque count | 0.2 µg/mL
CCCn1c2ccccc2c2n[nH]c(=S)nc21 | 1059 | WI-38 | plaque count | 20 µg/mL
CN(C)c1nc(C(F)(F)F)nc2c1ncn2Cc1cccc(F)c1 | Serotype 19 | M-HELA | plaque count | >8 µM
CSc1nsc(-c2ccccc2)c1C#N | Serotype 70 (group A) | HELA-OHIO | cytopathic effect | >80 µM
Cc1ccc(Cn2cnc3c(N(C)C)nc(C(F)(F)F)nc32)c(C)c1 | Serotype 1B | M-HELA | plaque count | 0.11 µM
C=CCO/N=C/c1ccc(OCCCN2CCN(c3ccc(Cl)nn3)CC2)cc1 | TYPE 1A | KB | cytopathic effect / visual reading | 0.003 µg/mL
CCc1nc2ccc(OCCC3CCN(c4ccc(C)nn4)CC3)cc2o1 | Serotype 14 | MRC-5 | cytopathic effect | 0.13 µg/mL
CCOC(=O)c1ccc(OCCC2CCN(c3ccc(C)nn3)CC2)cc1 | Serotype 34 | WI-38 | cytopathic effect | <0.1 µg/mL
CCCn1nc2ccc(OCCC3CCN(c4ccc(C)nn4)CC3)cc2n1 | Serotype 2 | MRC-5 | cytopathic effect | 0.032 µg/mL
Cn1c2ccc(Cl)cc2c2nnc(NCCCO)nc21 | HGP | WI-38 | plaque count | 100 µg/mL
CSc1nsc(-c2ccc(OCCc3ccccc3)cc2)c1C#N | Serotype 89 (group B) | HELA-OHIO | cytopathic effect | 0.4 µM
C=CCO/N=C/c1cc(C)c(OCCCc2cc(C)no2)c(C)c1 | TYPE 2 | MRC-5 | cytopathic effect / visual reading | <0.05 µg/mL
COCc1cc(CCCOc2c(Cl)cc(-c3noc(C)n3)cc2Cl)on1 | Serotype 2 | HeLa | cytopathic effect | 0.01 µg/mL
Cn1c2ccccc2c2nnc(SCCN3CCOCC3)nc21 | 2060 | WI-38 | plaque count | 20 µg/mL
CSc1nsc(-c2ccc(OCCOc3ccccc3)cc2)c1C#N | Serotype 51 (group B) | HELA-OHIO | cytopathic effect | >20 µM
CCO/N=C/c1ccc(OCCCN2CCN(c3ccc(Cl)nn3)CC2)cc1 | TYPE 1A | KB | cytopathic effect / visual reading | 0.01 µg/mL
CCOc1cnc2ccc(OCCC3CCN(c4ccc(C)nn4)CC3)cc2n1 | Serotype 14 | MRC-5 | cytopathic effect | 0.013 µg/mL
CN(C)c1nc(C(F)(F)F)nc2c1ncn2Cc1ccc(Cl)c(Cl)c1 | Serotype 1B | M-HELA | plaque count | 0.12 µM
CCc1nc(-c2cc(C)c(OCCCc3cc(COC)no3)c(C)c2)no1 | Serotype 50 | HeLa | cytopathic effect | 0.027 µg/mL
CCOC(=O)c1ccc(OCCOc2ccc(-c3snc(SC)c3C#N)cc2)cc1 | Serotype 2 (group B) | HELA-OHIO | cytopathic effect | >2 µM
CCCOc1nc2ccc(OCCC3CCN(c4ccc(C)nn4)CC3)cc2o1 | Serotype 14 | MRC-5 | cytopathic effect | 0.056 µg/mL
COc1ccc(-c2snc(SC)c2C#N)cc1 | Serotype 59 (group B) | HELA-OHIO | cytopathic effect | >12 µM
CCN(c1cccc(F)c1)c1nc(C(F)(F)F)nc2c1ncn2Cc1cccc(F)c1 | Serotype 5 | M-HELA | plaque count | 11 µM
CCOc1nc2ccc(OCCC3CCN(c4cc(C)c(Cl)nn4)CC3)cc2o1 | Serotype 14 | MRC-5 | cytopathic effect | 0.039 µg/mL

Repeating the final 6 entries:

smiles,strain,cells,read by,result
CCc1nc(-c2cc(C)c(OCCCc3cc(COC)no3)c(C)c2)no1,Serotype 50,HeLa,cytopathic effect,0.027 µg/mL
CCOC(=O)c1ccc(OCCOc2ccc(-c3snc(SC)c3C#N)cc2)cc1,Serotype 2 (group B),HELA-OHIO,cytopathic effect,>2 µM
CCCOc1nc2ccc(OCCC3CCN(c4ccc(C)nn4)CC3)cc2o1,Serotype 14,MRC-5,cytopathic effect,0.056 µg/mL
COc1ccc(-c2snc(SC)c2C#N)cc1,Serotype 59 (group B),HELA-OHIO,cytopathic effect,>12 µM
CCN(c1cccc(F)c1)c1nc(C(F)(F)F)nc2c1ncn2Cc1cccc(F)c1,Serotype 5,M-HELA,plaque count,11 µM
CCOc1nc2ccc(OCCC3CCN(c4cc(C)c(Cl)nn4)CC3)cc2o1,Serotype 14,MRC-5,cytopathic effect,0.039 µg/mL

Neighbouring rows are from separate reports. An empty or dashed field is not shown.